Results of unrelated studies side by side (data: NIAID ChemDB).

All rows: growth or infection tests; organism: Mycobacterium tuberculosis

MIC50, MIC90 and the like: level of inhibition, or share of isolates inhibited. Inhibition is in % at the dose shown (toxicity tests: loss of growth or viability). MIC bound: limit read from a one-dose screen. ECn is the concentration giving n% inhibition of infection, replication or growth. Neighbouring rows are from separate reports. Blank or dashed fields: not listed here.

structure,conditions,cell line,strain,read by,changes,dose,measure,result
CC(C)N=c1cc2n(-c3ccc(Cl)cc3)c3ccccc3nc-2cc1Nc1ccc(Cl)cc1,-,-,MDR16,broth dilution / resazurin,-,-,MIC,1 µg/mL
Nc1cccc2c(C3CCCCC3)cc(C3CCCCC3)nc12,-,-,H37Rv,-,-,-,MIC,>6.25 µg/mL
O=C(Nc1ccc(Cl)c(Cl)c1)c1cc(Cl)ccc1OS(=O)(=O)c1ccccc1,21 d,-,H37Rv,-,-,-,MIC,2 µM
CC1=C(C)/C(=C/c2ccccn2)NC1=O,-,-,H37Rv,BACTEC,-,-,MIC bound,>12.5 µg/mL
Nc1cccc2cccnc12,-,-,H37Rv,-,-,-,MIC,>6.25 µg/mL
COc1ccc(Nc2nc(NNC(=O)Cc3ccccc3)nc(NNC(=O)c3ccncc3)n2)cc1,-,-,H37Rv,BACTEC,-,-,MIC bound,>12.5 µg/mL
CCOC(=O)c1ccc2c(c1)nc(-c1ccc(C(F)(F)F)cc1)n2CCN1CCCC1=O,-,-,H37Rv,resazurin / fluorescence,-,-,MIC,>100 µM
CCN1CCc2c(sc(NC(=O)c3c(F)c(F)c(F)c(F)c3F)c2C#N)C1,-,-,H37Rv,turbidity,gyrA mutant (D94N),-,EC50,8.4 µM
CCOC(=O)c1ccc2nc(-c3ccc4c(c3)OCO4)[nH]c2c1,-,-,H37Rv,resazurin / fluorescence,-,-,EC50,>100 µM
CNC(=S)N=Nc1c(O)n(CN2CCOCC2)c2ccc(OC(F)(F)F)cc12,-,-,H37Rv,broth dilution / resazurin,-,-,EC90,>100 µg/mL
CCNC(=O)c1c(NC(=O)c2c(F)c(F)c(F)c(F)c2F)sc2c1CCN(CC)C2,-,-,ATCC35838,turbidity,-,-,MIC,9.2 µM
O=C(/C=C/c1ccccc1Cl)c1ccccc1,7 d,-,H37Rv,MTT,-,-,MIC,32 µg/mL
CCOC(=O)C1C2C=CC3CC(=O)N(C(C)c4ccccc4)C31O2,-,-,18b,resazurin,-,-,MIC,>16 µg/mL
C[C@H]1COc2c(N3CCN(C)CC3)c(F)cc3c(=O)c(C(=O)O)cn1c23,-,-,Clinical isolate BRF 23,resazurin,INH resistant,-,MIC,0.12 µg/mL
CN1C(=O)C2N(C(=O)C1(C)S)c1ccccc1C2(C)C,-,-,H37Rv,resazurin,-,6.25 µg/mL,inhibition,1%
CCOc1ccc(S(=O)(=O)[C@H]2CS(=O)(=O)C[C@@H]2NC2CCCC2)cc1,-,-,Clinical isolate,resazurin,-,-,MIC,16 µg/mL
CCCCNC(=S)N=Nc1c(O)n(CN2CCOCC2)c2ccc(OC(F)(F)F)cc12,-,-,H37Rv,broth dilution / resazurin,-,-,EC50,12.3 µg/mL
CCOC(=O)c1ccc2c(c1)nc(-c1ccc(Cl)cc1)n2CCN1CCCOC1,-,-,H37Rv,resazurin / fluorescence,-,-,MIC,100 µM
CCN(CC)CCNc1ccc(C)c2oc3ccc(O)cc3c(=O)c12,-,-,TAC-R,-,-,-,MIC,12.5 µg/mL
CCOC(=O)c1cc(-c2ccccc2)sc1NC(=O)C1C=C(C(F)(F)F)C=C1C(F)(F)F,-,-,H37Rv,resazurin,-,-,MIC,>100 µg/mL
CO[C@H]1/C=C/O[C@@]2(C)Oc3c(C)c(O)c4c(O)c(c(/C=N/N5CCN(C6CCCC6)CC5)c(O)c4c3C2=O)NC(=O)/C(C)=C\C=C\[C@H](C)[C@H](O)[C@@H](C)[C@@H](O)[C@@H](C)[C@H](OC(C)=O)[C@@H]1C,-,-,1034,-,-,-,MIC,0.16 µg/mL
CCOC(=O)c1ccc2c(c1)nc(-c1ccc(C(F)(F)F)cc1)n2CCN1CCCOC1,-,-,H37Rv,resazurin / fluorescence,-,-,MIC,100 µM
CC(=O)Oc1c(C)c(OC(C)=O)c2c(c1C(C)=O)OC1CC(=O)C(C(C)=O)=C(O)C21C,-,-,H37Rv,BACTEC,-,12.5 µg/mL,inhibition,14%
CCN1CCc2c(sc(NC(=O)c3c(F)c(F)c(F)c(F)c3F)c2C(=O)NC)C1,-,-,H37Rv,resazurin,-,-,MIC,1.6 µM
Fc1ccc(CNc2ccc(Cl)nn2)cc1,-,-,18b,resazurin,-,-,MIC,8 µg/mL
N#Cc1c(NC(=O)c2c(F)c(F)c(F)c(F)c2F)sc2c1CCOC2,-,-,H37Rv,turbidity,gyrA mutant (D94N),-,EC50,4.9 µM
O=C(/C(C=NC(=S)c1ccncc1)=C(/O)C1=CC=CCC1)c1ccccc1,-,-,H37Rv,resazurin,-,-,MIC bound,>6.25 µg/mL
COc1ccc(C(=O)/C=C/c2ccccc2Cl)cc1,21 d,-,H37Rv,resazurin,-,-,MIC,32 µg/mL
O=C(Nc1cccc(C(F)(F)F)c1)c1cc(Cl)ccc1OS(=O)(=O)c1ccccc1,21 d,-,H37Rv,-,-,-,MIC,4 µM
[O-][n+]1c2ccccc2[n+]([O-])c2c3ccccc3[nH]c21,-,-,H37Rv,resazurin,-,-,MIC bound,<6.25 µg/mL
O=C(Nc1cccc(C(F)(F)F)c1)c1ccc(Cl)cc1OS(=O)(=O)c1ccccc1,21 d,-,H37Rv,-,-,-,MIC,125 µM
CCOC(=O)c1ccc2nc(C3C(c4ccccc4)C(=O)C3c3ccc(OC)cc3)[nH]c2c1,-,-,H37Rv,resazurin / fluorescence,-,-,EC50,>100 µM
CC1(C)CC(N=c2cc3n(-c4cc(Cl)c(Cl)c(Cl)c4)c4ccccc4nc-3cc2Nc2cc(Cl)c(Cl)c(Cl)c2)CC(C)(C)N1,inside macrophages,Macrophages,H37Rv,-,-,-,MIC,0.015 µg/mL
CCCOc1c(C(C)=O)cc([N+](=O)[O-])c2nccc(CC)c12,-,-,H37Rv,-,-,-,MIC,>6.25 µg/mL
CCOC(=O)c1c(NC(=O)c2c(F)c(F)c(F)c(F)c2F)sc2c1CCOC2,-,-,ATCC 35822,turbidity,-,-,MIC,0.26 µM
CN(C)c1ccc(C(=NOC(=O)c2ccccc2)c2ccc(N(C)C)cc2)cc1,-,-,H37Rv,resazurin,-,-,MIC bound,>6.25 µg/mL
O=C(Nc1ccc(F)cc1)c1ccc(Cl)cc1OS(=O)(=O)c1ccccc1,14 d,-,H37Rv,-,-,-,MIC,16 µM
O=C(/C=C/c1ccccc1)c1ccccc1,14 d,-,H37Rv,MTT,-,-,MIC,32 µg/mL
COc1ccc2c(c1)n([O-])c1cc(C#N)ccc1[n+]2=O,-,-,H37Rv,BACTEC,-,12.5 µg/mL,inhibition,95%
Cc1cccc(C2C(=S)NC(=O)C3=C2NCN(CCc2ccccc2)C3)n1,-,-,Clinical isolate,resazurin,-,-,MIC,16 µg/mL
CCCCCCOc1c(C(C)=O)cc([N+](=O)[O-])c2nccc(CC)c12,-,-,H37Rv,-,-,-,MIC,>6.25 µg/mL
NC[C@@H]1O[C@H](O[C@H]2[C@@H](O)[C@H](O[C@@H]3[C@@H](O)[C@H](N)C[C@H](N)[C@H]3O[C@H]3O[C@H](CO)[C@@H](O)C[C@H]3N)O[C@@H]2CO)[C@H](N)[C@@H](O)[C@@H]1O[C@H]1O[C@H](CO)[C@@H](O)[C@H](O)[C@@H]1O,-,-,5 strains,-,-,-,MIC,50 µg/mL
CC(=O)Nc1ccc(C(=O)NN2C(=O)C(Cl)C2/C=C\c2ccccc2)cc1,-,-,H37Rv,BACTEC,-,-,MIC bound,>12.5 µg/mL
COc1cc(C2SC(C)C(=O)N2NC(=O)COc2ccc(NC(C)=O)cc2)ccc1O,-,-,H37Rv,-,-,12.5 µg/mL,inhibition,24%
COc1cc([C@H]2c3cc(O)c(OC)cc3C[C@H]3C(=O)OC[C@H]23)ccc1O,-,-,H37Rv,BACTEC,-,-,MIC bound,>12.5 µg/mL
CC1(C)CC(N=c2cc3n(-c4cc(Cl)cc(Cl)c4)c4ccccc4nc-3cc2Nc2cc(Cl)cc(Cl)c2)CC(C)(C)N1,inside macrophages,Macrophages,H37Rv,-,-,-,EC50,<0.005 µg/mL
Cn1c2cc(F)ccc2c(=O)c2c(O)cc3c(c21)C=CC(C)(C)O3,-,-,H37Rv,BACTEC,-,-,MIC bound,>12.5 µg/mL
CCC(CC)C(=O)Nc1occ2c1CC(C)CC2,-,-,Clinical isolate,resazurin,-,-,MIC,8 µg/mL
COc1ccc(NC(=S)N=Nc2c(O)n(CN3CCOCC3)c3ccc(OC(F)(F)F)cc23)cc1,-,-,H37Rv,broth dilution / resazurin,-,-,EC90,>100 µg/mL
CCO/C(O)=C(/C(=N)N1CCCC1)C(=O)Nc1cccc(Cl)c1,-,-,H37Rv,resazurin,-,6.25 µg/mL,inhibition,8%
NC(=O)c1cnccn1,-,-,H37Rv,-,-,-,MIC,30 µg/mL
Cc1cn(CCCCCCCCCCCCOc2c3occc3cc3ccc(=O)oc23)c(=O)[nH]c1=O,-,-,H37Rv,BACTEC,-,-,MIC bound,>12.5 µg/mL
CC(=O)Nc1ccc(OCC(=O)NN2C(=O)C(C)SC2c2ccccc2O)cc1,-,-,H37Rv,-,-,-,EC50,>12.5 µg/mL
c1ccc(N=C2C(=Nc3ccccc3)N(C3CCCCC3)C(=NC3CCCCC3)N2c2ccccc2)cc1,-,-,H37Rv,BACTEC,-,12.5 µg/mL,inhibition,0%
CCOC(=O)c1ccc2c(c1)nc(-c1ccc(OC)cc1)n2CCN1CCCOC1,-,-,H37Rv,resazurin / fluorescence,-,-,EC50,99.79 µM
Cc1ccc(NC(=S)N=Nc2c(O)n(C)c3ccc(OC(F)(F)F)cc23)cc1,-,-,H37Rv,broth dilution / resazurin,-,-,EC50,66.4 µg/mL
CN=C1NC(=O)CC(C(=O)Nc2ccc3ccccc3c2)S1,-,-,Clinical isolate,resazurin,-,-,MIC,4 µg/mL
O=[N+]([O-])c1cccc2ccc(C3CCCCC3)nc12,-,-,H37Rv,-,-,6.25 µg/mL,inhibition,99%
CCOC(=O)c1ccc2c(c1)nc(-c1cccc(-c3ccc(F)cc3)c1)n2CCN1CCCOC1,-,-,H37Rv,resazurin / fluorescence,-,-,MIC,>100 µM
CC1COc2c(N3CCN(C)CC3)c(F)cc3c(=O)c(C(=O)O)cn1c23,-,-,45 strains (drug-susceptible),-,-,-,MIC50,1 µg/mL
CC(C)(C)c1ccc2cccc([N+](=O)[O-])c2n1,-,-,H37Rv,-,-,-,MIC,>6.25 µg/mL
O=C(c1ccncc1)n1nc(-c2ccccc2)c(N=Nc2nc3ccc([N+](=O)[O-])cc3s2)c1-c1ccccc1,-,-,H37Rv,resazurin,-,-,MIC,0.39 µg/mL
O=C(/C=C/c1ccccc1)c1ccc(F)cc1,7 d,-,H37Rv,resazurin,-,-,MIC,32 µg/mL
CCOC(=O)c1ccc2c(c1)nc(-c1ccc(O)cc1O)n2CCN1CCCC1=O,-,-,H37Rv,resazurin / fluorescence,-,-,MIC,>100 µM
NC1[C@H]2CN(c3nc4c(cc3F)c(=O)c(C(=O)O)cn4-c3ccc(F)cc3F)C[C@@H]12,-,-,45 strains (drug-susceptible),-,-,-,MIC90,>4 µg/mL
CC(=O)Nc1ccc(OCC(=O)NN2C(=O)CSC2c2ccccc2Cl)cc1,-,-,H37Rv,-,-,-,EC50,>12.5 µg/mL
CCN1CCc2c(sc(N)c2C(=O)Nc2ccc(C)cc2)C1,-,-,H37Rv,resazurin,-,-,MIC,>100 µg/mL
CC(=O)Nc1ccc(OCC(=O)NN2C(=O)CSC2c2ccc(Cl)cc2Cl)cc1,-,-,H37Rv,-,-,-,EC50,>12.5 µg/mL
C/C=C1\CN2CCC1CC2C(O)c1ccnc2ccc(OCCO)cc12,-,-,H37Rv,resazurin,-,6.25 µg/mL,inhibition,9%
O=C(Nc1ccc(F)cc1)c1cc(Cl)ccc1OS(=O)(=O)c1ccccc1,14 d,-,H37Rv,-,-,-,MIC,8 µM
CCNC(=S)N=Nc1c(O)n(C)c2ccc(C)cc12,-,-,H37Rv,broth dilution / resazurin,-,-,EC90,>100 µg/mL
CC(C)(C)c1ccc(C2(Br)C(=O)NC(=O)C2=O)cc1,-,-,H37Rv,BACTEC,-,12.5 µg/mL,inhibition,0%
O=[N+]([O-])c1ccc(NC(=S)N=Nc2c(O)n(CN3CCOCC3)c3ccc(OC(F)(F)F)cc23)cc1,-,-,H37Rv,broth dilution / resazurin,-,-,EC90,>100 µg/mL
COc1ccc(C(=O)/C=C/c2ccccc2Cl)c(F)c1,21 d,-,H37Rv,MTT,-,-,MIC,32 µg/mL
CCCCNC(=S)N=Nc1c(O)n(C)c2ccc(OC(F)(F)F)cc12,-,-,H37Rv,broth dilution / resazurin,-,-,EC90,>100 µg/mL
CC(=O)Nc1ccc(OCC(=O)NN2C(=O)CSC2c2ccccc2[N+](=O)[O-])cc1,-,-,H37Rv,-,-,-,EC50,>12.5 µg/mL
Cn1c(O)c(N=NC(=S)Nc2ccccc2)c2cc(OC(F)(F)F)ccc21,-,-,H37Rv,broth dilution / resazurin,-,-,EC90,>100 µg/mL
C=CCNC(=S)NC=C(C(N)=O)C(N)=O,-,-,H37Rv,resazurin,-,-,MIC bound,<6.25 µg/mL
COc1cccc(/C=C/C(=O)c2ccc(F)cc2)c1F,14 d,-,H37Rv,MTT,-,-,MIC,32 µg/mL
CC1(C)C(=O)N(c2ccccc2)C(=O)N1c1nc2ccccc2[nH]1,-,-,H37Rv,BACTEC,-,-,MIC bound,>12.5 µg/mL
O=c1c(S(=O)(=O)c2cccc(F)c2)c[nH]c2ccc(F)cc12,-,-,Clinical isolate,resazurin,-,-,MIC,16 µg/mL